What was measured:
C=CC(C)(C(=O)O)C(=O)O = test: purified protein; settings: mutant printed as ICPLLG
C=CC(CC)(C(=O)O)C(=O)O = test: purified protein; settings: mutant printed as ICPLLG

Substance: arylmalonate decarboxylase (AMDase) (Bordetella bronchiseptica; A125P/C188G/G74C/M159L/V156L/V43I)
- Km (C=CC(C)(C(=O)O)C(=O)O): 110 ± 20 µM
- kcat (C=CC(C)(C(=O)O)C(=O)O): 0.023 ± 0.001 s⁻¹
- Km (C=CC(CC)(C(=O)O)C(=O)O): 160 ± 20 µM
- kcat (C=CC(CC)(C(=O)O)C(=O)O): 0.0050 ± 0.0003 s⁻¹
